Results of unrelated studies side by side (data: NIAID ChemDB).

All rows: whole-cell or culture tests; agent: Enterococcus faecium; measure: MIC

Neighbouring rows are from separate reports.

| compound | strain or isolate | result |
|---|---|---|
| O=C(/C=C/c1ccccc1)NC[C@H]1CN(c2ccc(N3CCOCC3)c(F)c2)C(=O)O1 | UC12712 (vancomycin-resistant) | 8 µg/mL |
| Cc1ccc(-c2ccc(O)c3c2C[C@H]2C[C@H]4[C@H](N(C)C)C(=O)C(C(N)=O)=C(O)[C@@]4(O)C(=O)C2=C3O)cc1N | 494 (vancomycin-resistant) | 2 µg/mL |
| O=C(CC(=O)Nc1cc(C(F)(F)F)cc(C(F)(F)F)c1)Nc1cccc(C2=NCCN2)c1 | EF12 (vancomycin-resistant) | 53 µM |
| CCNc1c(F)cc2c(=O)c(C(=O)O)cn(-c3cc(N)c(F)cc3F)c2c1C | W1140 | 2 µg/mL |
| O=C(Nc1ccc(C(F)(F)F)cc1)NN(CC(O)CN1CCOCC1)C(=O)Nc1ccc(C(F)(F)F)cc1 | EF12 (vancomycin-resistant) | >300 µM |
| CN(C)[C@@H]1C(=O)C(C(N)=O)=C(O)[C@@]2(O)C(=O)C3=C(O)c4c(O)ccc(-c5ccc6c(c5)OCO6)c4C[C@H]3C[C@@H]12 | 494 (vancomycin-resistant) | 0.5 µg/mL |
| CC(=O)NC[C@H]1CN(c2ccc(C(=O)Nc3ccc(Cl)nc3)c(F)c2)C(=O)O1 | UC12712 (vancomycin-resistant) | 2 µg/mL |
| O=C(NC[C@H]1CN(c2ccc(C3CCS(=O)(=O)CC3)c(F)c2)C(=O)O1)Nc1ccc(Cl)c(Cl)c1 | UC12712 (vancomycin-resistant) | >64 µg/mL |
| O=C(CCC(=O)Nc1cc(C(F)(F)F)cc(C(F)(F)F)c1)Nc1cc(C(F)(F)F)cc(C(F)(F)F)c1 | EF12 (vancomycin-resistant) | >300 µM |
| CC(=O)NC[C@H]1CN(c2ccc(C(=O)Nc3nncs3)c(F)c2)C(=O)O1 | UC12712 (vancomycin-resistant) | 4 µg/mL |
| O=C(NNC(=O)Nc1ccccc1C(F)(F)F)Nc1cc(C(F)(F)F)cc(C(F)(F)F)c1 | EF12 (vancomycin-resistant) | >300 µM |
| O=C(CSc1ccccc1)NC[C@H]1CN(c2ccc(N3CCOCC3)c(F)c2)C(=O)O1 | UC12712 (vancomycin-resistant) | 32 µg/mL |
| CSCC(=O)NC[C@H]1CN(c2ccc(C(N)=O)c(F)c2)C(=O)O1 | UC12712 (vancomycin-resistant) | 8 µg/mL |
| O=C(Nc1cccc(C2=NCCN2)c1)Nc1cccc(C(F)(F)F)c1 | EF12 (vancomycin-resistant) | >300 µM |
| CC(=O)NC[C@H]1CN(c2ccc(C(=O)NO)c(F)c2)C(=O)O1 | UC12712 (vancomycin-resistant) | 16 µg/mL |
| CC(=O)NC[C@H]1CN(c2ccc(Sc3sccc3[N+](=O)[O-])c(F)c2)C(=O)O1 | UC12712 (vancomycin-resistant) | 4 µg/mL |
| COCC(=O)Nc1ccc(N2C[C@H](CNC(C)=O)OC2=O)cc1F | UC12712 (vancomycin-resistant) | 16 µg/mL |
| Cc1c(N)c(F)cc2c(=O)c(C(=O)O)cn(-c3cc(N)c(F)cc3F)c12 | ATCC51519 | 8 µg/mL |
| CN(C)[C@@H]1C(=O)C(C(N)=O)=C(O)[C@@]2(O)C(=O)C3=C(O)c4c(O)ccc(-c5ccoc5)c4C[C@H]3C[C@@H]12 | 494 (vancomycin-resistant) | 1 µg/mL |
| CSc1ccc(NC(=O)c2ccc(N3C[C@H](CNC(C)=O)OC3=O)cc2F)cn1 | UC12712 (vancomycin-resistant) | 4 µg/mL |
| CC(=O)NC[C@H]1CN(c2ccc(NC(=O)CO)c(F)c2)C(=O)O1 | UC12712 (vancomycin-resistant) | 16 µg/mL |
| O=C(Cc1cccc(Br)c1)NC[C@H]1CN(c2ccc(N3CCOCC3)c(F)c2)C(=O)O1 | UC12712 (vancomycin-resistant) | 16 µg/mL |
| CC(=O)NC[C@H]1CN(c2ccc(SCSC#N)c(F)c2)C(=O)O1 | UC12712 (vancomycin-resistant) | 8 µg/mL |
| O=C(NNc1ccccn1)Nc1cc(C(F)(F)F)cc(C(F)(F)F)c1 | EF12 (vancomycin-resistant) | >300 µM |
| CC(=O)NC[C@H]1CN(c2ccc3c(c2)OCc2nccn2-3)C(=O)O1 | 27253 | 0.5 µg/mL |
| COCC(=O)N1CCC(Oc2ccc(N3C[C@H](CNC(C)=O)OC3=O)cn2)CC1 | OC3312 vancomycin-resistant | >64 µg/mL |
| CC(=O)NC[C@H]1CN(c2ccc(NC(=O)c3ccco3)c(F)c2)C(=O)O1 | UC12712 (vancomycin-resistant) | 16 µg/mL |
| O=C(NNC(=O)NC1CCCCC1)Nc1cc(C(F)(F)F)cc(C(F)(F)F)c1 | EF12 (vancomycin-resistant) | 200 µM |
| CC(=O)NC[C@H]1CN(c2ccc(C(=O)NN)c(F)c2)C(=O)O1 | UC12712 (vancomycin-resistant) | 8 µg/mL |
| O=C(CCOc1ccc(Cl)cc1Cl)NC[C@H]1CN(c2ccc(N3CCOCC3)c(F)c2)C(=O)O1 | UC12712 (vancomycin-resistant) | 8 µg/mL |
| CC(=O)NC[C@H]1CN(c2ccc(Sc3ncc([N+](=O)[O-])s3)c(F)c2)C(=O)O1 | UC12712 (vancomycin-resistant) | 2 µg/mL |
| Cc1c(NCCO)c(F)cc2c(=O)c(C(=O)O)cn(-c3cc(N)c(F)cc3F)c12 | W1140 | 4 µg/mL |
| CC(=O)NC[C@H]1CN(c2ccc(N3C[C@@H]4C(N)[C@@H]4C3)c(F)c2)C(=O)O1 | UC12712 (vancomycin-resistant) | 2 µg/mL |
| CN(C)[C@@H]1C(=O)C(C(N)=O)=C(O)[C@@]2(O)C(=O)C3=C(O)c4c(O)ccc(-c5ccc(F)cc5)c4C[C@H]3C[C@@H]12 | 494 (vancomycin-resistant) | 0.5 µg/mL |
| O=C(NCCO)NNC(=O)Nc1cc(C(F)(F)F)cc(C(F)(F)F)c1 | EF12 (vancomycin-resistant) | >300 µM |
| CSCC(=O)NC[C@H]1CN(c2ccc(N3CCOCC3)c(F)c2)C(=O)O1 | UC12712 (vancomycin-resistant) | 32 µg/mL |
| CC(=O)NC[C@H]1CN(c2ccc(NC(=O)c3cccnc3)c(F)c2)C(=O)O1 | UC12712 (vancomycin-resistant) | 32 µg/mL |
| O=C(Nc1cccc(C2=NCCN2)c1)Nc1cccc(C2=NCCN2)c1 | EF12 (vancomycin-resistant) | 189 µM |